Measurements published in patent US11203613B2, “Peptidomimetic proteasome inhibitors” (CORNELL UNIVERSITY, priority 2017, dated 2021).

System: Mtb20SOG
Type: biochemical, Mycobacterium tuberculosis
Conditions: Table 2; Hu c-20S IC50 over Mtb20SOG IC50

| SMILES | Selectivity |
| --- | --- |
| CC[C@H]1CCCCN1C(=O)C[C@H](Nc1nc2ccccc2s1)C(=O)N[C@@H](C)c1nc2c(F)cccc2[nH]1 [CF-503445] | 1 |
| CC(C)CCC(=O)N[C@@H](CC(=O)N(C)C(C)C)C(=O)N[C@@H](C)c1ncc(-c2ccc(F)cc2F)[nH]1 [CF-503200] | 16 |
| C[C@H](NC(=O)[C@H](CC(=O)N1CCCC[C@@H]1C)NC(=O)CCc1ccccc1)C(=O)NCc1cccc(N)c1 | 138 |
| CC[C@H]1CCCCN1C(=O)C[C@H](Nc1nc2ccc(C)cc2o1)C(=O)N[C@@H](C)c1nc2c(F)cccc2[nH]1 [CF-503360] | 4 |
| C[C@H](NC(=O)[C@@H](N)CC(=O)N1CCC[C@@H]1c1ccccc1)c1ncc(-c2ccccc2F)[nH]1 [CF-503240] | 11 |
| C[C@H](NC(=O)[C@H](CC(=O)N1CCCC[C@@H]1C)NS(=O)(=O)Cc1ccccc1)c1ncc(-c2ccc(F)cc2F)[nH]1 [CF-503140] | 16 |
| C[C@H](NC(=O)[C@H](CC(=O)N1CCCC[C@@H]1C)NCC(=O)c1ccccc1)c1ncc(-c2ccc(F)cc2F)[nH]1 [CF-503145] | 1.5 |
| CC(C)CCC(=O)N[C@@H](CC(=O)N1CCCC1)C(=O)N[C@@H](C)c1ncc(-c2ccc(F)cc2F)[nH]1 [CF-503159] | 3 |
| C[C@H](NC(=O)[C@H](CC(=O)N1CCCC[C@@H]1C)NC(=O)CCC(C)(C)C)c1nc2c(F)cccc2[nH]1 [CF-503227] | 61 and 80 |
| C[C@H](NC(=O)N(CC(=O)N1CCCC[C@@H]1C)NC(=O)CCC(C)(C)C)C(=O)NCc1ccc(F)cc1F [CF-503202] | 1 1 |
| CC(C)CCC(=O)N[C@@H](CC(=O)N1CCCCC1C(C)C)C(=O)N[C@@H](C)c1ncc(-c2ccc(F)cc2F)[nH]1 (some centres unmarked) [CF-503218] | 20 and 19 |
| C[C@H](NC(=O)[C@H](CC(=O)N1CCCC[C@@H]1C)NS(=O)(=O)c1ccccc1)c1ncc(-c2ccc(F)cc2F)[nH]1 [CF-503142] | 12 |
| CCS(=O)(=O)N[C@@H](CC(=O)N1CCCC[C@@H]1C)C(=O)N[C@@H](C)c1ncc(-c2ccc(F)cc2F)[nH]1 [CF-503144] | 15 |
| C[C@H](NC(=O)[C@H](CC(=O)N1CCC[C@@H]1c1ccccc1)NC(=O)CCC(C)(C)C)c1nc2ccccc2[nH]1 [CF-503156] | 188 |
| CC[C@H]1CCCCN1C(=O)C[C@H](NC(=O)N1CCOCC1)C(=O)N[C@@H](C)c1nc2c(F)cccc2[nH]1 [CF-503453] | 1 |
| CC(C)CCNc1nc(C(=O)N[C@@H](C)C(=O)NCc2ccc(F)cc2F)cc(N2CCCC2)n1 [CF-503175] | 1 1 |
| CC(C)C1CC1C(=O)N[C@@H](CC(=O)N1CCCC[C@@H]1C)C(=O)N[C@@H](C)c1nc2c(F)cccc2[nH]1 (some centres unmarked) [CF-503381] | 60 and 75 |
| C[C@H](NC(=O)N(CC(=O)N1CCCC[C@@H]1C)NC(=O)OC(C)(C)C)C(=O)NCc1ccc(F)cc1F [CF-503201] | 1 1 |
| CC(C)CCC(=O)N[C@@H](CC(=O)N1CCCC[C@@H]1C)C(=O)N[C@H](C)c1nc2ccccc2[nH]1 [CF-503192] | 3 |
| C[C@H](NC(=O)[C@H](CC(=O)N1CCCC[C@@H]1C)NC(=O)[C@H]1C[C@@H]1c1ccccc1)c1nc2c(F)cccc2[nH]1 [drawing 477] | 74 |
| C[C@H](NC(=O)[C@H](CC(=O)N1CCCC[C@@H]1C)NC(=O)CCc1ccccc1)C(=O)NCc1cccc(NC(=O)OC(C)(C)C)c1 | 2 |
| C[C@H](NC(=O)[C@H](CC(=O)N1CCCC[C@@H]1C)NC(=O)CCC1CC1)c1ncc(-c2ccc(F)cc2F)[nH]1 [CF-503204] | 119 |
| CC[C@H]1CCCCN1C(=O)C[C@H](NC(=O)OCc1ccccc1)C(=O)N[C@@H](C)c1nc2c(F)cccc2[nH]1 [CF-503461] | 85 and 109 |
| Cc1cc(C(=O)N[C@@H](CC(=O)N2CCCC[C@@H]2C)C(=O)N[C@@H](C)c2ncc(-c3ccccc3)[nH]2)no1 [CF-503102] | 20 and 23 |
| Cc1cc(C(=O)N[C@@H](CC(=O)N2CCCC[C@@H]2C)C(=O)N[C@@H](C)c2ncc(Cc3ccccc3)[nH]2)no1 [CF-503133] | 21 and 30 |
| C[C@H](NC(=O)N(CC(=O)N1CCCC[C@@H]1C)NC(=O)CCC(C)(C)C)c1ncc(-c2ccc(F)cc2F)[nH]1 [CF-503189] | 1 and 1.3 |
| CC(C)CCS(=O)(=O)N[C@@H](CC(=O)N1CCC[C@@H]1c1ccccc1)C(=O)N[C@@H](C)c1nc2ccccc2[nH]1 [CF-503183] | 45 and 40 and 80 |
| C[C@H](NC(=O)[C@H](CC(=O)N1CCCC[C@@H]1C)NC(=O)CC1CCOCC1)c1ncc(Cc2ccccc2)[nH]1 [CF-503135] | 20 and 35 |
| CC(C)CCC(=O)N[C@@H](CC(=O)N1CCCC[C@@H]1C)C(=O)N[C@@H](C)c1ncc(-c2ccc(F)cc2F)[nH]1 [CF-503198] | 5 |

Same assay, conditions: ratio IC50 (Human Constitutive) / IC50 (Mtb20SOG)

| SMILES | Selectivity |
| --- | --- |
| CC(C)COC(=O)NC(CC(=O)N1CCCCC1C)C(=O)NC(C)c1nc2c(F)cccc2[nH]1 (centres unmarked) [CF-503463] | 2 |
| CC(NC(=O)C(CC(=O)N1CCCCC1C)NC(=O)OCc1ccccc1)c1nc2c(F)cccc2[nH]1 (centres unmarked) [CF-503462] | 123 |
| CC[C@H]1CCCCN1C(=O)C[C@H](NC(=O)CCC(C)C)C(=O)N[C@@H](C)c1nc2ccccc2[nH]1 [CF-503216] | 50 43 |
| Cc1cc(C(=O)N[C@@H](CC(=O)N2CCCC[C@@H]2C)C(=O)N[C@@H](C)c2nc3c(F)cccc3[nH]2)no1 [CF-503274] | 103 |
| Cc1cc(C(=O)NC(CC(=O)N2CCCCC2C)C(=O)NC(C)c2ncc(-c3ccccc3)[nH]2)no1 (mixture of isomers) [CF-503094] | 25 15 |
| CC(C)CCC(=O)N[C@@H](CC(=O)N1CCCCCC1)C(=O)N[C@@H](C)c1nc(-c2ccc(F)cc2F)c[nH]1 [CF-503214] | 15 |
| CC(NC(=O)C(CC(=O)N1CCCCC1C)NC(=O)N(C)Cc1ccccc1)c1nc2c(F)cccc2[nH]1 (centres unmarked) [CF-503460] | 63 |
| CC(C)C(=O)CN[C@@H](CC(=O)N1CCCC[C@@H]1C)C(=O)N[C@@H](C)c1ncc(-c2ccc(F)cc2F)[nH]1 [CF-503151] | 0.9 |
| CC(NC(=O)C(CC(=O)N1CCCCC1C)NC(=O)C1CC1c1ccccc1)c1nc2c(F)cccc2[nH]1 (centres unmarked) [CF-503363] | 158 |
| CC[C@H]1CCCCN1C(=O)C[C@H](NC(=O)C1CC1C(C)C)C(=O)N[C@@H](C)c1nc2c(F)cccc2[nH]1 (some centres unmarked) [CF-530373] | 3427 100 82 |
| CC(C)CCS(=O)(=O)NC(CC(=O)N1CCCC1c1ccccc1)C(=O)NC(C)c1nc2ccccc2[nH]1 (centres unmarked) [CF-503184] | 4 |
| CC(NC(=O)C(CC(=O)N1CCCCC1C)NC(=O)C1CC(C)(C)C1)c1nc(-c2ccc(F)cc2F)c[nH]1 (centres unmarked) [CF-503474] | 404 |
| CC1CC(C(=O)N[C@@H](CC(=O)N2CCC[C@@H]2c2ccccc2)C(=O)NC(C)c2nc3ccccc3[nH]2)C1 (some centres unmarked) [CF-503155] | 67 |
| CC[C@H]1CCCCN1C(=O)C[C@H](Nc1nc2cc(C)ccc2o1)C(=O)N[C@@H](C)c1nc2c(F)cccc2[nH]1 [CF-503357] | 7 |
| CC[C@H]1CCCCN1C(=O)C[C@H](NC(=O)CCc1ccccc1)C(=O)N[C@@H](C)c1nc2c(F)cccc2[nH]1 [CF-503291] | 377 565 |
| CC[C@H]1CCCCN1C(=O)C[C@H](NC(=O)C1CC2(CCC2)C1)C(=O)N[C@@H](C)c1nc2c(F)cccc2[nH]1 [CF-503458] | 1920 112 |
| CC[C@H]1CCCCN1C(=O)C[C@H](NC(=O)CC(F)(F)F)C(=O)N[C@@H](C)c1nc2c(F)cccc2[nH]1 [CF-503319] | 13 |

| SMILES | Selectivity |
| --- | --- |
| C[C@H](NC(=O)[C@H](CC(=O)N1CCCC[C@@H]1C)NC(=O)C1CCC1)c1ncc(-c2ccc(F)cc2F)[nH]1 [CF-503146] | 15 |
| C[C@@H](NC(=O)[C@H](CC(=O)N1CCC[C@@H]1C)NC(=O)CCC(C)(C)C)c1nc2ccccc2[nH]1 [CF-503190] | 7 |
| CC[C@H]1CCCCN1C(=O)C[C@H](NC(=O)CCC(C)(C)C)C(=O)N[C@@H](C)c1nc2ccccc2[nH]1 [CF-503217] | 54 11 |
| CC[C@H]1CCCCN1C(=O)C[C@H](NC(=O)NCc1ccccc1)C(=O)N[C@@H](C)c1nc2c(F)cccc2[nH]1 [CF-503304] | 26 29 |
| CC(C)CCC(=O)N[C@@H](CC(=O)N1CCCC[C@H]1C)C(=O)N[C@@H](C)c1nc(-c2ccc(F)cc2F)c[nH]1 [CF-503199] | 10 |
| CC[C@H]1CCCCN1C(=O)C[C@H](NC(=O)CCC(C)C)C(=O)N[C@@H](C)c1nc2cc(F)cc(F)c2[nH]1 [CF-503219] | 5 5 |
| CCC1CCCCN1C(=O)CC(NC(=O)C1CC1c1ccccc1)C(=O)NC(C)c1nc2c(F)cccc2[nH]1 (centres unmarked) | 160 |
| C[C@H](NC(=O)[C@H](CC(=O)N1CCC[C@@H]1c1ccccc1)NC(=O)CC1CC1)c1ncc(Cc2ccccc2)[nH]1 [CF-503137] | 161 165 |
| CC(C)CCC(=O)N[C@@H](CC(=O)N1CCOC[C@@H]1C)C(=O)N[C@@H](C)c1nc(-c2ccc(F)cc2F)c[nH]1 [CF-503210] | 37 |
| Cc1cc(C(=O)N[C@@H](CC(=O)N2CCCC[C@@H]2C)C(=O)N[C@@H](C)c2ncc(-c3ccc(F)cc3)[nH]2)no1 [CF-503105] | >69 74 |
| CC(C)CCC(=O)N[C@@H](CC(=O)N1CCCC[C@@H]1C)C(=O)N[C@@H](C)c1ncc(-c2ccc(F)cc2F)[nH]1 [CF-503147] | 130 182 289 471 . . . 194 |
| C[C@H]1CCCCN1C(=O)C[C@H](NC(=O)CCC(C)(C)C)C(=O)NCc1nc2ccccc2[nH]1 [CF-503191] | 23 |
| CC(NC(=O)C(CC(=O)N1CCCCC1C)NC(=O)C1CC1C(C)C)c1nc(-c2ccc(F)cc2F)c[nH]1 (centres unmarked) [CF-503475] | 140 |
| CC[C@H]1CCCCN1C(=O)C[C@H](NC(=O)CCC(C)C)C(=O)N[C@@H](C)c1nc2cc(F)c(F)cc2[nH]1 [CF-503229] | 1 |
| Cc1cc(C(=O)N[C@@H](CC(=O)N2CCCC2)C(=O)N[C@@H](C)c2nc(-c3ccc(F)cc3F)c[nH]2)no1 [CF-503161] | 5 |
| Cc1cc(C(=O)N[C@@H](CC(=O)N2CCC[C@@H]2c2ccccc2)C(=O)N[C@@H](C)c2ncc(-c3ccccc3F)[nH]2)no1 [CF-503108] | 7692 17 1023 |

Values joined by “and” are separate entries in the source; they are usually repeats but may differ in a detail not shown here. Equal values may be shown once.
